Results: PMC10857709, “Autophagy and cell wall integrity pathways coordinately regulate the development and pathogenicity through MoAtg4 phosphorylation in Magnaporthe oryzae” (2024)

Target: GST-MoAtg8 (Magnaporthe oryzae)
Assay: MST

Substance	pKd
His-MoAtg4 (enzyme)	6.82
His-MoAtg4^C206S (enzyme)	6.72

pKd: −log10 of the molar value.
